Data published in paper PMC9852841, “Expanding the toolbox of metabolically stable lipid prodrug strategies” (Frontiers in Pharmacology, 2023).

The compounds below were run on VSV pseudotype HIV-like viral particles.
Type: cell-based

Row | Compound | Therapeutic index
1 | CCCCCCCCOCCCCCOCCCCCOP(=O)(O)CO[C@H](C)Cn1cnc2c(N)ncnc21.N [Compound 11, Ammonium 5-(5-octoxypentoxy)pentoxy-[[(1R)-2-(6-aminopurin-9-yl)-1-methyl-ethoxy]methyl]phosphinate] | >25a
2 | CCCCCCCCCCCCCCCCCOCCOP(=O)(O)CO[C@H](C)Cn1cnc2c(N)ncnc21.N [Compound 18, Ammonium 2-heptadecoxyethoxy-[[(1R)-2-(6-aminopurin-9-yl)-1-methyl-ethoxy]methyl]phosphinate] | 23,200
3 | CCCCCCCCCCCCCCCOCCCCOP(=O)(O)CO[C@H](C)Cn1cnc2c(N)ncnc21.N [Compound 19, Ammonium 4-pentadecoxybutoxy-[[(1R)-2-(6-aminopurin-9-yl)-1-methyl-ethoxy]methyl]phosphinate] | >3,330
4 | CCCCCCCCCCCCCCOCCCCCOP(=O)(O)CO[C@H](C)Cn1cnc2c(N)ncnc21.N [Compound 20, Ammonium [(1R)-2-(6-aminopurin-9-yl)-1-methyl-ethoxy]methyl-(5-tetradecoxypentoxy)phosphinate] | >1,920
5 | CCCCCCCCCCCCCCCCCCOCCOP(=O)(O)CO[C@H](C)Cn1cnc2c(N)ncnc21.N [Compound 21, Ammonium 2-octadecoxyethoxy-[[(1R)-2-(6-aminopurin-9-yl)-1-methyl-ethoxy]methyl]phosphinate] | 17,900
6 | C[C@H](Cn1cnc2c(N)ncnc21)OCP(=O)(O)OCCOCCCCCCCCCCCCCC#CC(F)(F)F.N [Compound 32, Ammonium 2-((16,16,16-trifluorohexadec-14-yn-1-yl)oxy)ethyl (R)-(((1-(6-amino-9h-purin-9-yl)propan-2-yl)oxy)methyl)phosphonate] | >6,250
7 | C[C@H](Cn1cnc2c(N)ncnc21)OCP(=O)(O)OCCOCCCCCCCCCCCCCCC#CC(F)(F)F.N [Compound 33, Ammonium 2-((17,17,17-trifluoroheptadec-15-yn-1-yl)oxy)ethyl (R)-(((1-(6-amino-9h-purin-9-yl)propan-2-yl)oxy)methyl)phosphonate] | >9,430
8 | C[C@H](Cn1cnc2c(N)ncnc21)OCP(=O)(O)OCCOCCCCCCCCCCCCCCCC(F)(F)F.N [Compound 36, Ammonium 2-((16,16,16-trifluorohexadecyl)oxy)ethyl (R)-(((1-(6-amino-9H-purin-9-yl)propan-2-yl)oxy)methyl)phosphonate] | >11,400
9 | C[C@H](Cn1cnc2c(N)ncnc21)OCP(=O)(O)OCCOCCCCCCCCCCCCCCCCC(F)(F)F.N [Compound 37, Ammonium 2-((17,17,17-trifluoroheptadecyl)oxy)ethyl (R)-(((1-(6-amino-9h-purin-9-yl)propan-2-yl)oxy)methyl)phosphonate] | 6,750
10 | C[C@H](Cn1cnc2c(N)ncnc21)OCP(=O)(O)OCCOCCCCCCCCCCCCc1ccc(S(F)(F)(F)(F)F)cc1.N [Compound 42, Ammonium [(1R)-2-(6-aminopurin-9-yl)-1-methyl-ethoxy]methyl-[2-[12-[4-(pentafluorosulfanyl)phenyl]dodecoxy]ethoxy]phosphinate] | >3,940

The amount applied is not stated for every result. The index is printed as in the source, without its formula.
